Assay results from US6900351B2, “Aminopolycarboxylates, process for producing the same and use thereof” (Tosoh Corporation, priority 2000, dated 2005).

Tested on: activated sludge
Assay: Biodegradability test with activated sludge (modified MITI method, OECD Test Guideline 301C)
Conditions: 25° C., 4 weeks

O=C([O-])CC(NCCNC(CC(=O)[O-])C(=O)O)C(=O)[O-].[Na+].[Na+].[Na+] (centres unmarked) [trisodium N,N′-ethylenediaminedisuccinate]
proportion degraded in biodegradability test (modified MITI method OECD 301C, sample 100 mg/l, activated sludge 30 mg/l): ≥ 80%
proportion degraded in biodegradability test (sample 30 mg/l, activated sludge 100 mg/l): ≥ 80%
